Reference: publication PMC3856094, “Identification of Novel Small Molecules as Inhibitors of Hepatitis C Virus by Structure-Based Virtual Screening” (International Journal of Molecular Sciences, 2013)

Test system: HCV replicon, Huh7 (NS3-5B) cells
Experiment: cell-based HCV replicon assay (luciferase)
Set-up: species or system Hepatitis C virus genotype 1b
Settings: dose-response curve in HCV replicon system (Figure 3)
Method: Huh7 (NS3-5B) cells correspond to a stable cell line transfected with HCV NS3-5B genotype 1b. The cells were seeded (1 × 10^4 cells per well) in Dulbecco’s Modified Eagle Medium (DMEM) supplemented with 10% fetal bovine serum, 2 mM glutamine, penicillin (100 IU/mL)/streptomycin (100 μg/mL), 1× nonessential amino acids and 0.5 mg/mL G418 in 96-well plates overnight. Compounds were diluted and added to each well. Each concentration was measured in duplicate. After 48 h of incubation, 100 μL of Steady-Glo Luciferase buffer (E2550, Promega, Beijing, China) was added to each well and shaken for 10 min, and the results were read on plate reader (ENVISION, PerkinElmer, Shanghai, China). The IC50 values were calculated by fitting with the parameter of the Hill equation.

Compound | Hill slope
COc1cccc(/C=N/NC(=O)c2cc3ccccc3nc2C)c1O [Compound 5] | 1.30
C=CCc1cccc(/C=N/c2ccc(OC)cc2)c1O [Compound 11] | 1.02
